Amino acid sequences for entries named in this document (tags omitted). Residues count along the entry.
UniProt P26663, 1027-1657 limits assumed: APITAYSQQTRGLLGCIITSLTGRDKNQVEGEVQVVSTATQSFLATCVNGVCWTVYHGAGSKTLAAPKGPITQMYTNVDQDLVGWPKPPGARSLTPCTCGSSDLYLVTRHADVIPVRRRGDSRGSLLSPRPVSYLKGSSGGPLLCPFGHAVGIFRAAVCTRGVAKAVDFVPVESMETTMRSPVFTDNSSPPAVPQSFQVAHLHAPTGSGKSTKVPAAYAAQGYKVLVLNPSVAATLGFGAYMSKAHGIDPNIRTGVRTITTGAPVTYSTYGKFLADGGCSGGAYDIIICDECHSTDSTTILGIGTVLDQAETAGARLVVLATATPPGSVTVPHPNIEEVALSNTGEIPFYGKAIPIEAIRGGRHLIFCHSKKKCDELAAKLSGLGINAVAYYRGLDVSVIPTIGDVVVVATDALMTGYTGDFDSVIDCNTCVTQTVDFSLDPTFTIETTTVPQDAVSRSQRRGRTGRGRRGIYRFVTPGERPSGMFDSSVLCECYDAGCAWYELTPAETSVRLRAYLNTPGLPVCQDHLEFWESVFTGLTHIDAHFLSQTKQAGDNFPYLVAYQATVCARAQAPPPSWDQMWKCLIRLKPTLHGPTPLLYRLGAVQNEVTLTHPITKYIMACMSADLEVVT

According to patent US20090047246A1, “NOVEL INHIBITORS OF HEPATITIS C VIRUS REPLICATION” (InterMune, Inc., priority 2007, published 2009):

Biological target: HCV NS3 helicase (Hepatitis C virus genotype 1b, UniProt P26663)
Assay: HCV Helicase Prompt FRET Assay (Example A)
Format: biochemical
Conditions: read-out: IC50 Activity, tables do not say whether Example A or Example B assay
Method: Test compounds were diluted to 2.5 mM by adding 6 uL of a 10 mM solution of the compound to 18 uL of DMSO in a 384-well Costar polypropylene plate. Serial dilutions (2.5×) were performed in the plate using DMSO as the diluent. 1 ul of solution was transferred from each well to a new 384-well Costar polypropylene plate.
A 2× mixture was prepared containing 100 nM helicase substrate, 500 nM helicase capture strand (CS), and 600 μM ATP by diluting stock solutions with assay buffer consisting of 25 mM MOPS, pH 7.0, and 1.5 mM MgCl2, 0.005% (v/v) Triton X-100. Stock helicase substrate was prepared by annealing a FAM-labeled oligonucleotide to a BHQ-1 labeled oligonucleotide, which were both custom synthesized and HPLC-purified at Biosearch Technologies. The FAM-labeled and BHQ-labeled oligonucleotide had the following sequences:
The helicase capture strand was custom synthesized and purified at Integrated DNA Technologies. The helicase capture strand had the following sequence:
The ATP solution was prepared in MilliQ water, pH adjusted to approximately 7 with NaOH. ATP powder was obtained from Sigma (A-7699). The concentration was determined via A260 (ext. coeff=15,400 M^−1cm^−1).
11.5 μL of assay buffer was added to all wells of the plate containing luL of test compound. 5 μL of the Compound/assay buffer mixture was added to a black polystyrene 384-well Proxiplate. A 4× Enzyme solution was prepared by diluting enzyme stock containing full-length NS3 (1-631), purified at Array BioPharma, with assay buffer. 5 μL of the 4× Enzyme solution was added to the Proxiplate and incubated for 5 minutes (for control wells lacking enzyme, assay buffer was used instead). 10 μL of 2× substrate/CS/ATP mixture was then added to all wells of Proxiplate. The final assay conditions included 50 nM Substrate, 250 nM Capture Strand, 300 μM ATP, 5 or 6 nM Enzyme, and 2% (v/v) DMSO. The reaction proceeded for 70 cycles (˜30 min.) on an Envision at room temperature. The plate was read using the Envision (top mirror=FITC; Excitation filter=FITC 485; Emission filter=FITC 535). The fluorescence intensity was recorded for a total of 30 minutes. The initial rates of the reactions was calculated and used to calculate IC50 values. The IC50 curve fitting was performed using either a 4-parameter or 5-parameter logistic equation.

Row | Structure (SMILES) | IC50 [µM]
1 | O=C(O)C1CC=Cc2[nH]c3ccccc3c21 (stereo not shown) | > 50
2 | Cc1cc([N+](=O)[O-])ccc1-n1c2c(c3ccccc31)C(C(=O)O)CCC2 (stereo not shown) | > 50
3 | O=C(O)C1CCCc2[nH]c3ccccc3c21 (stereo not shown) | > 50
4 | O=C(O)C1CCCc2c1c1ccccc1n2Cc1ccccc1 (stereo not shown) | > 50
